Test system: Supt-1 cells
Experiment: Toxicity against sound cells, cellular mortality by exclusion with trypan blue
Conditions: dilutions 1/500, 1/1500 and 1/3000

N=C(N)N=NC(=N)N
cellular viability of Supt-1 cells: does not decrease the cellular viability
